Only a part is listed here, and it is no random draw. Some salts or complexes appear as unconnected parts, following the source record. Calls of active or inactive are those of the source. Cut-off read from the data, not from the text of the source: active = inhibition above about 27%; inactive = the rest.
Biological target: Fructose-bisphosphate aldolase (Mycobacterium tuberculosis (strain ATCC 25618 / H37Rv)) (UniProt P9WQA3)
Assay: Mtb FBA enzyme inhibitors, primary screen, biochemical, fluorescence, strain H37Rv (AID 588726);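 note: 0% = vehicle and 100% = reference inhibitor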
Conditions: purified M. tuberculosis FBA, fluorescence read-out; at 1 µM; stronger effect = higher value

Chains of the proteins cited; added tags and fusions are not shown.
UniProt P9WQA3, whole entry: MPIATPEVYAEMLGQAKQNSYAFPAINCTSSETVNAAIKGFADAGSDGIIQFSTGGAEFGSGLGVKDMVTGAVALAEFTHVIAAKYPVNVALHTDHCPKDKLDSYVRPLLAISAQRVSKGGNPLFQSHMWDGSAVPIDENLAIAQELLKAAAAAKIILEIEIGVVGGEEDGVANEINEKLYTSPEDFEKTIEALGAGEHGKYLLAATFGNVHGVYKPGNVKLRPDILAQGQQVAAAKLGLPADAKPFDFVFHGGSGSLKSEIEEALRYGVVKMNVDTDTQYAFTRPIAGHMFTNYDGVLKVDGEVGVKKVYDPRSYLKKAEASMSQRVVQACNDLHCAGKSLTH

Compound | inhibition
CP(=O)(Nc1ccc(SC(F)(F)F)cc1)Oc1ccccc1 (stereo not given) | inactive: -0.42%
CCCOc1ccc(NP(C)(=O)Oc2ccc(Cl)cc2)cc1 (stereo not given) | inactive: 0.31%
COc1ccccc1OP(C)(=O)Nc1c(C)cccc1C (stereo not given) | inactive: -3.47%
CN1CCCCC1COC(=O)C1(O)c2ccccc2CCc2ccccc21 (stereo not given) | inactive: 1.26%
CCOC(=O)C(CC)C1=NC(C)(C)Cc2ccccc21.O=[N+]([O-])c1cc([N+](=O)[O-])c(O)c([N+](=O)[O-])c1 (stereo not given) | inactive: -17.7%
O=[N+]([O-])c1cc([N+](=O)[O-])c(Nc2nnnn2CCO)c([N+](=O)[O-])c1 | inactive: -10.7%
CC1=C2N=C(C=C3N=C(C(C)=C4[N-][C@@](C)([C@@H]5N=C1[C@](C)(CCC(=O)NC[C@@H](C)OP(=O)([O-])O[C@H]1[C@@H](O)[C@@H](n6cnc7cc(C)c(C)cc76)O[C@@H]1CO)[C@H]5CC(N)=O)[C@@](C)(CC(N)=O)[C@@H]4CCC(N)=O)[C@@](C)(CC(N)=O)[C@@H]3CCC(N)=O)C(C)(C)[C@@H]2CCC(N)=O.[C-]#N.[Co+3] | inactive: -4.85%
Cc1nc2ccc3ccccc3c2s1.O=[N+]([O-])c1cc([N+](=O)[O-])c(O)c([N+](=O)[O-])c1 | inactive: -22.6%
O=[N+]([O-])c1cc([N+](=O)[O-])c(-c2cnn(-c3ccccc3)c2)c([N+](=O)[O-])c1 | inactive: -2.57%
CN(Cc1cccnc1)C(=O)COc1ccc(Cl)c(Cl)c1.O=[N+]([O-])c1cc([N+](=O)[O-])c(O)c([N+](=O)[O-])c1 | inactive: -11.4%
O=[N+]([O-])c1cc([N+](=O)[O-])c(-n2nnc3ccccc32)c([N+](=O)[O-])c1 | inactive: -2.4%
CP(=O)(Nc1cccc(Br)c1)Oc1ccccc1 (stereo not given) | inactive: 1.98%
Cc1cc(C)cc(OP(C)(=O)Nc2ccccn2)c1 (stereo not given) | inactive: 1.8%
Cc1ccc(C)c(NP(C)(=O)Oc2ccccc2)c1 (stereo not given) | inactive: 0.22%
Cc1cc(C)cc(OP(C)(=O)Nc2ccc(C)cc2C)c1 (stereo not given) | inactive: -3.1%
CCOC(=O)c1ccc(NP(C)(=O)Oc2cc(C)cc(C)c2)cc1 (stereo not given) | inactive: -2.35%
COc1ccccc1OP(C)(=O)Nc1cccc(Br)c1 (stereo not given) | inactive: 1.41%
CC1=NCCc2c1[nH]c1ccccc21.O=[N+]([O-])c1cc([N+](=O)[O-])c(O)c([N+](=O)[O-])c1 | inactive: -1.99%
O=C(O)c1cccc(Nc2c([N+](=O)[O-])cc([N+](=O)[O-])cc2[N+](=O)[O-])c1 | inactive: -10.8%
COc1ccc(OP(C)(=O)Nc2cccc(F)c2)cc1 (stereo not given) | inactive: -2.59%
COc1ccccc1OP(C)(=O)Nc1cc(Cl)ccc1C (stereo not given) | inactive: 0.52%
Cc1cc(C)cc(OP(C)(N)=O)c1 (stereo not given) | inactive: 2.64%
CCOC(=O)c1ccc(NP(C)(=O)Oc2ccccc2)cc1 (stereo not given) | inactive: -0.03%
Cc1ccc(NP(C)(=O)Oc2ccccc2)c(C)c1 (stereo not given) | inactive: 0.64%

Compound | inhibition
COc1ccccc1OP(C)(=O)Nc1ccc(C)cc1 (stereo not given) | inactive: 0.76%
Cc1cccc(C)c1OP(C)(N)=O (stereo not given) | inactive: 0.49%
CC(C)(C)c1ccc(OP(C)(=O)Nc2ccc(SC(F)(F)F)cc2)cc1 (stereo not given) | inactive: -2.15%
O=[N+]([O-])c1ccc2c(c1)C=Nc1ccccc1O2 | inactive: -7.67%
O=[N+]([O-])c1cc([N+](=O)[O-])c(Nc2cccnc2)c([N+](=O)[O-])c1 | inactive: -3.52%
CCN(CC)CCCOC(=O)C(O)(c1ccccc1)c1ccccc1 | inactive: 3.58%
CP(=O)(Nc1ccccn1)Oc1ccc(Cl)cc1 (stereo not given) | inactive: 0.8%
CCOP(C)(=S)SCC(=O)NC(C)C(=O)O (stereo not given) | inactive: -1.83%
CCOC(=O)c1ccc(NP(C)(=O)Oc2ccc(OC)cc2)cc1 (stereo not given) | inactive: -1.19%
O=[N+]([O-])c1cc([N+](=O)[O-])c(O)c([N+](=O)[O-])c1.c1ccc(Oc2ccncc2)cc1 | inactive: -1.48%
Cc1cc(C)cc(OP(C)(=O)Nc2ccc(SC(F)(F)F)cc2)c1 (stereo not given) | inactive: 3.11%
CCc1ccc(OP(C)(=O)N2CCN(c3ccc([N+](=O)[O-])cc3)CC2)cc1 (stereo not given) | inactive: -6.31%
CP(=O)(NC(=O)Nc1ccccc1)Oc1ccccc1 (stereo not given) | inactive: 0.64%
CP(=O)(Oc1ccccc1)OC(c1ccccc1)C(F)(F)F (stereo not given) | inactive: -2.8%
Cc1cccc(C)c1OP(C)(=O)Nc1ccc(SC(F)(F)F)cc1 (stereo not given) | inactive: 3.61%
Cc1ccc(Nc2c([N+](=O)[O-])cc([N+](=O)[O-])cc2[N+](=O)[O-])cc1 | inactive: -6.04%
CP(=O)(Nc1ccc(SC(F)(F)F)cc1)Oc1ccc(Cl)cc1 (stereo not given) | inactive: -4.92%
COc1ccccc1OP(C)(=O)Nc1ccccc1 (stereo not given) | inactive: 0.69%
CP(=O)(Nc1ccccc1Br)Oc1ccccc1 (stereo not given) | inactive: -1.04%
CP(=S)(Nn1cnnc1)Oc1ccccc1 (stereo not given) | inactive: 3.42%
CP(=O)(OC12CC3CC(CC(C3)C1)C2)OC12CC3CC(CC(C3)C1)C2 | inactive: 0.77%
CCOC(=O)c1ccc(NP(C)(=O)Oc2ccc(Cl)cc2)cc1 (stereo not given) | inactive: 3.01%
CN(C)C(=O)c1c([N+](=O)[O-])cc([N+](=O)[O-])cc1[N+](=O)[O-] | inactive: 0.12%
CP(=O)(Nc1ccc(Cl)cc1)Oc1ccc(F)cc1 (stereo not given) | inactive: 0.45%

Compound | inhibition
CC(C)(C)c1ccc(OP(C)(=O)O)cc1 | inactive: 2.13%
COc1ccccc1OP(C)(=O)Nc1ccccc1Br (stereo not given) | inactive: 3.65%
CCc1ccc(OP(C)(=O)Nc2cccnc2)cc1 (stereo not given) | inactive: 3.57%
CP(=O)(Oc1ccccc1)N1CCOC1=O (stereo not given) | inactive: -0.12%
O=C(OCCCN1CCCC1)C(O)(c1ccccc1)C1CCCCC1 (stereo not given) | inactive: 0.79%
COc1ccccc1OP(C)(=O)Nc1c(C)n(C)n(-c2ccccc2)c1=O (stereo not given) | inactive: -1.7%
COc1ccc(OP(C)(=O)Nc2ccc(Br)cc2)cc1 (stereo not given) | inactive: 1.11%
CCN(CC)CC(O)COC(=O)C(O)(c1ccccc1)C1CCCCC1 (stereo not given) | inactive: 2.18%
CCc1ccc(OP(C)(=O)O)cc1 | inactive: -1.45%
COc1ccccc1OP(C)(=O)Nc1ccc(C)cc1C (stereo not given) | inactive: 1.24%
CP(=O)(Nc1ccccn1)Oc1ccccc1 (stereo not given) | inactive: 1.93%
O=[N+]([O-])c1cc([N+](=O)[O-])c(Nc2ccccn2)c([N+](=O)[O-])c1 | inactive: -8.75%
Cc1c(NP(C)(=O)Oc2ccc(C(C)C)cc2)c(=O)n(-c2ccccc2)n1C (stereo not given) | inactive: -0.97%
CN(C)CCOC(=O)C(O)(c1ccccc1)C1CCCC1 (stereo not given) | inactive: -1.13%
COc1ccc(OP(C)(=O)Nc2ccccn2)cc1 (stereo not given) | inactive: -0.78%
COc1ccccc1OP(C)(=O)Nc1ccc(Br)cc1 (stereo not given) | inactive: 0.97%
CP(=O)(OCCOc1ccccc1)OCCOc1ccccc1 | inactive: 3.25%
CP(=O)(Nc1ccc(Cl)cc1Cl)Oc1ccccc1 (stereo not given) | inactive: 0.07%
CCCCCCCCCCCCCCCC1C[N+](C)(C)CCOP(C)(=O)O1 (stereo not given) | inactive: 1.46%
COc1ccc(OP(C)(=O)Nc2ccccc2Br)cc1 (stereo not given) | inactive: 0.43%
COc1ccccc1OP(C)(=O)Nc1ccc(C)c(C)c1 (stereo not given) | inactive: 0.14%
Cc1cc(C)cc(OP(C)(=O)Nc2cccc(C(F)(F)F)c2)c1 (stereo not given) | inactive: 1.63%
O=C1C(O)=C([N+](=O)[O-])C(=O)C(O)=C1[N+](=O)[O-] | inactive: -2.34%
O=[N+]([O-])c1cc([N+](=O)[O-])c(OC2CCCCC2O)c([N+](=O)[O-])c1 (stereo not given) | inactive: -7.86%

Compound | inhibition
CCCCCOc1ccc(NP(C)(=O)Oc2ccc(Cl)cc2Cl)cc1 (stereo not given) | inactive: -2.43%
CP(=O)(Nc1ccccc1)Oc1ccc(F)cc1 (stereo not given) | inactive: 0.36%
CCN(CC)CCCOC(=O)C(O)(c1ccccc1)C1CCCCC1 (stereo not given) | inactive: 1.19%
Cc1c([N+](=O)[O-])cc([N+](=O)[O-])c(Br)c1[N+](=O)[O-] | inactive: -3.45%
COc1ccc(OP(C)(=O)Nc2ccc(SC(F)(F)F)cc2)cc1 (stereo not given) | inactive: -3.47%
CCOC(=O)c1ccc(NP(C)(=O)Oc2ccc(F)cc2)cc1 (stereo not given) | inactive: 0.98%
COc1ccc2c(c1O)-c1c(O)c(OC)cc3c1[C@H](C2)[N+](C)(C)CC3.O=[N+]([O-])c1cc([N+](=O)[O-])c([O-])c([N+](=O)[O-])c1[O-] | active: 52%
O=C(OCCN1CCN(CCOCc2ccccc2)CC1)C(O)(c1ccccc1)c1ccccc1 | inactive: -3.3%
O=C(OC1CN2CCC1CC2)c1ccc([N+](=O)[O-])cc1 (stereo not given) | inactive: 0.9%
CC(C)c1ccc(OP(C)(=O)Nc2ccc(SC(F)(F)F)cc2)cc1 (stereo not given) | inactive: -2.2%
CP(=O)(Nc1ccccc1F)Oc1ccccc1 (stereo not given) | inactive: 3.31%
O=[N+]([O-])c1cc([N+](=O)[O-])c(Nc2ccc(Cl)cc2)c([N+](=O)[O-])c1 | inactive: -6.45%
Cc1ccccc1NP(C)(=O)Nc1ccccc1C | inactive: 1.95%
CP(=O)(Nc1ccc2c(c1)OCCO2)Oc1ccccc1 (stereo not given) | inactive: 0.61%
CCOP(C)(=S)SCC(=O)NC(C)(CC)C(=O)O (stereo not given) | inactive: -2.66%
CP(=O)(Nc1ccc(SC(F)(F)F)cc1)Oc1ccc(F)cc1 (stereo not given) | inactive: 0.38%
Cc1c(C(c2ccc3c(c2)OCO3)c2c(C)n(C)n(-c3ccccc3)c2=O)c(=O)n(-c2ccccc2)n1C.O=[N+]([O-])c1cc([N+](=O)[O-])c(O)c([N+](=O)[O-])c1 | inactive: -3.89%
O=[N+]([O-])c1cc([N+](=O)[O-])c(NCC2CCS(=O)(=O)C2)c([N+](=O)[O-])c1 (stereo not given) | inactive: -10.1%
Cc1cc(-c2cccc3ccccc23)c(C)cn1.O=[N+]([O-])c1cc([N+](=O)[O-])c(O)c([N+](=O)[O-])c1 | inactive: -3.09%
O=[N+]([O-])c1ccc(OP2(=O)COCCO2)cc1 (stereo not given) | inactive: 2.6%
COc1ccc(NP(C)(=O)Oc2ccccc2OC)cc1 (stereo not given) | inactive: 4.49%
CN(C)CCOC(=O)C(O)(c1ccccc1)C1CCCCC1 (stereo not given) | inactive: 0.01%
COc1ccc(OP(C)(=O)Nc2cccc(Br)c2)cc1 (stereo not given) | inactive: 0.33%
